Measured values reported in patent US20240059757A1 (VIR BIOTECHNOLOGY, published 2024).
Several values for one entry are separate records, joined by “and”; a condition that tells them apart may be missing. Identical values can stand only once.

Tests used:
SC2018 spike RBD [1] = molecular target: T1, SC2018 spike RBD (SC2018); assay: BLI
T1 construct: domain: RBD

[2] = molecular target: T2, BGR2008 spike protein RBD (BGR2008); assay: BLI
T2 construct: domain: RBD

SARS-CoV-2 B.1.1.222 RBD = molecular target: T3, SARS-CoV-2 B.1.1.222 RBD (SARS-CoV-2 B.1.1.222); assay: ELISA
T3 construct: domain: RBD

SC2018 spike RBD [3] = molecular target: T1, SC2018 spike RBD; assay: BLI; *no optimal fitting

Row | Binder | Kd (SC2018 spike RBD [1]) | Kd [2] | IC50 (SARS-CoV-2 B.1.1.222 RBD) | Kd (SC2018 spike RBD [3])
1 | S2X259 variant antibody, VH SEQ ID NO 408 / VL SEQ ID NO 442 (antibody, V domains shown) VH: QVQLVQSGAEVKKPGSSVKVSCKASGGIFNTYTISWVRQAPGQGLEWMGRIILMSGMANYAQKIQGRVTITADKSTSTAYMELTSLRSDDTAVYYCARGFNGNYYGWGDDDAFDISGQGTLVTVYS VL: QTVLTQPPSVSGAPGQRVTISCTGSNSNIGAGYDVHWYQQLPGTAPKLLISGNSNRPSGVPDRFSGSKSGTSASLAITGLQAEDEADYYCQSYDSSLSGPNWVFGGGTKLTVL | 5.55 nM | 0.522 nM | – | –
2 | S2X259 variant antibody, VH SEQ ID NO 458 / VL SEQ ID NO 445 (antibody, V domains shown) VH: QVQLVQSGAEVKKPGSSVKVSCKASGGIFNTYTISWVRQAPGQGLEWMGRIILMSGMANYAQKIQGRVTITADKSTSTAYMELTSLRSDDTAVYYCARGFNGNYYGWGDDDAFDIWGQGTLVTVSS VL: QTVLTQPPSVSGAPGQRVTISCTGSNSNIGAGYDVHWYQQLPGTAPKLLIVGNSNRPSGVPDRFSGSKSGTSASLAITGLQAEDEADYYCQSYDSSLSGPNWVFGGGTKLTVL | – | – | ≥ 0.05 µg/mL and ≤ 0.1 µg/mL | –
3 | S2X259 variant antibody, VH SEQ ID NO 408 / VL SEQ ID NO 444 (antibody, V domains shown) VH: QVQLVQSGAEVKKPGSSVKVSCKASGGIFNTYTISWVRQAPGQGLEWMGRIILMSGMANYAQKIQGRVTITADKSTSTAYMELTSLRSDDTAVYYCARGFNGNYYGWGDDDAFDISGQGTLVTVYS VL: QTVLTQPPSVSGAPGQRVTISCTGSNSNIGAGYDVHWYQQLPGTAPKLLIYGNSNRPSGVPDRFSGSKSGTSASLAITGLQAEDEADYYCQSYDSSLSGPNWVFGGGTKLTVL | – | 1.96 nM | – | 6 nM
4 | S2X259 variant antibody, VH SEQ ID NO 408 / VL SEQ ID NO 445 (antibody, V domains shown) VH: QVQLVQSGAEVKKPGSSVKVSCKASGGIFNTYTISWVRQAPGQGLEWMGRIILMSGMANYAQKIQGRVTITADKSTSTAYMELTSLRSDDTAVYYCARGFNGNYYGWGDDDAFDISGQGTLVTVYS VL: QTVLTQPPSVSGAPGQRVTISCTGSNSNIGAGYDVHWYQQLPGTAPKLLIVGNSNRPSGVPDRFSGSKSGTSASLAITGLQAEDEADYYCQSYDSSLSGPNWVFGGGTKLTVL | 8.36 nM | 0.859 nM | – | –
5 | S2X259 variant antibody, VH SEQ ID NO 446 / VL SEQ ID NO 412 (antibody, V domains shown) VH: QVQLVQSGAEVKKPGSSVKVSCKASGGIFNTYTISWVRQAPGQGLEWMGRIILISGIANYAQKIQGRVTITADKSTSTAYMELTSLRSDDTAVYYCARGFNGNYYGWGDDDAFDISGQGTLVTVYS VL: QTVLTQPPSVSGAPGQRVTISCTGSNSNIGAGYDVHWYQQLPGTAPKLLICGNSNRPSGVPDRFSGSKSGTSASLAITGLQAEDEADYYCQSYDSSLSGPNWVFGGGTKLTVL | – | 4.95 nM | – | 1.2 nM
6 | S2X259 variant antibody, VH SEQ ID NO 408 / VL SEQ ID NO 443 (antibody, V domains shown) VH: QVQLVQSGAEVKKPGSSVKVSCKASGGIFNTYTISWVRQAPGQGLEWMGRIILMSGMANYAQKIQGRVTITADKSTSTAYMELTSLRSDDTAVYYCARGFNGNYYGWGDDDAFDISGQGTLVTVYS VL: QTVLTQPPSVSGAPGQRVTISCTGSNSNIGAGYDVHWYQQLPGTAPKLLIAGNSNRPSGVPDRFSGSKSGTSASLAITGLQAEDEADYYCQSYDSSLSGPNWVFGGGTKLTVL | 7.94 nM | 0.735 nM | – | –
7 | S2X259 variant antibody, VH SEQ ID NO 459 / VL SEQ ID NO 445 (antibody, V domains shown) VH: QVQLVQSGAEVKKPGSSVKVSCKASGGIFNTYTISWVRQAPGQGLEWMGRIILMSGKANYAQKIQGRVTITADKSTSTAYMELTSLRSDDTAVYYCARGFNGNYYGWGDDDAFDIWGQGTLVTVSS VL: QTVLTQPPSVSGAPGQRVTISCTGSNSNIGAGYDVHWYQQLPGTAPKLLIVGNSNRPSGVPDRFSGSKSGTSASLAITGLQAEDEADYYCQSYDSSLSGPNWVFGGGTKLTVL | – | – | ≥ 0.05 µg/mL and ≤ 0.1 µg/mL | –
